Experimental data: PubChem BioAssay AID504761 (Drosophila RNAi Screening Center, 2011)

- Test: 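Fly genes whose silencing reduces dengue virus type 2 infection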 (primary screen)
- System: D.Mel-2 cells from Drosophila
- Knock-down reagent: long dsRNA against Drosophila genes
- Challenge: infection with dengue virus type 2; dose and infection time not stated
- Measurement: 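Cells stained for dengue envelope protein and imaged; percent of infected cells per well on duplicate plates, ranked by infection, with stained nuclei counted for cell number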
- Direction: infection score: higher = more virus-infected cells; cell count: higher = more cells in the well
- Rule for the call: 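Very low infection ranking in both replicate wells (chance probability at most 0.065), then a retest showing infection dropped 1.5-fold or more at p below 0.05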
- Meaning of the calls: active = confirmed: knock-down lowers infection; inactive = not picked or not confirmed
In all, the deposit lists about 22,000 reagents; shown is a random part of those with a known target gene and a result. Over the whole deposit, 116 (0.52%) are marked active. 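Calls depend on retest data that are not deposited; infection was ranked per plate without normalising between plates; the unit of the infection score is not given.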 The raw values are shown without normalisation. Names joined by + are all predicted targets of the reagent. The record does not give: the amount of reagent, the time to read-out.

The opening 7 entries, to show the layout:
Target gene	DRSC id	infection score, replicate 1	infection score, replicate 2	cell count, replicate 1	cell count, replicate 2	activity call
CG18788	DRSC02697	4.99	4.38	6149	6047	inactive
Antp (Antennapedia)	DRSC23104	0.58	0.81	6533	6883	active
Antp (Antennapedia)	DRSC26749	3.24	5.11	6330	6343	inactive
CG10147	DRSC09706	2.85	9.16	6113	5623	inactive
CG10147	DRSC29564	7.55	26.2	2039	4574	inactive
gig (gigas)	DRSC11351	11.3	14.9	5081	4403	inactive
gig (gigas)	DRSC29781	22.4	10.4	4486	4910	inactive

The list itself, from the start:
Target gene	DRSC id	infection score, replicate 1	infection score, replicate 2	cell count, replicate 1	cell count, replicate 2	activity call
CG18788	DRSC02697	4.99	4.38	6149	6047	inactive
Antp (Antennapedia)	DRSC23104	0.58	0.81	6533	6883	active
Antp (Antennapedia)	DRSC26749	3.24	5.11	6330	6343	inactive
CG10147	DRSC09706	2.85	9.16	6113	5623	inactive
CG10147	DRSC29564	7.55	26.2	2039	4574	inactive
gig (gigas)	DRSC11351	11.3	14.9	5081	4403	inactive
gig (gigas)	DRSC29781	22.4	10.4	4486	4910	inactive
CG8750	DRSC11037	0.29	1.07	6590	6432	inactive
CG11414	DRSC04110	17	44	6652	5419	inactive
Dscam4 (Down syndrome cell adhesion molecule 4)	DRSC08913	2.12	2.58	5697	5924	inactive
Dscam4 (Down syndrome cell adhesion molecule 4)	DRSC10031	1.11	2.93	6116	6285	inactive
Dscam4 (Down syndrome cell adhesion molecule 4)	DRSC10329	0.94	3.5	5763	5398	inactive
Dscam4 (Down syndrome cell adhesion molecule 4)	DRSC10765	1.15	4.19	5715	4919	inactive
Dscam4 (Down syndrome cell adhesion molecule 4)	DRSC27460	20.3	33	6340	6300	inactive
dre4	DRSC08714	2.6	11.9	5529	4166	inactive
CG12065	DRSC17798	4.42	3.65	5884	5781	inactive
CG12065	DRSC17799	1.64	3.93	6536	6722	inactive
Gr97a (Gustatory receptor 97a)	DRSC13802	1.76	1.5	6093	6149	inactive
CG11983	DRSC14458	3.25	15.6	6713	5467	inactive
Whamy (WHAMM and JMY related)	DRSC14574	4.68	15.3	6561	5378	inactive
Whamy (WHAMM and JMY related)	DRSC28119	12.4	26.4	6478	4625	inactive
Toll-4	DRSC03458	3.55	1.17	6416	6386	inactive
ImpE1 (Ecdysone-inducible gene E1)	DRSC11195	1.9	0.92	6326	6197	inactive
ImpE1 (Ecdysone-inducible gene E1)	DRSC11196	1.93	2.13	6111	6189	inactive
ImpE1 (Ecdysone-inducible gene E1)	DRSC24590	0.52	8.29	6522	6636	inactive
Vajk2	DRSC02540	14.5	9.77	5173	5903	inactive
Vajk2	DRSC25275	4.01	1.74	6055	5978	inactive
BomS2 (Bomanin Short 2)	DRSC21488	2.49	21	6177	5631	inactive
CG14718	DRSC14941	9.35	19.2	2429	6068	inactive
mRpL16 (mitochondrial ribosomal protein L16)	DRSC18550	9.8	5.92	6671	7074	inactive
mRpL16 (mitochondrial ribosomal protein L16)	DRSC29510	10.2	4.85	1408	1196	inactive
CG8925	DRSC16455	9.21	9.94	6408	6472	inactive
CG8925	DRSC16456	3.57	10.3	6306	6112	inactive
CG8925	DRSC16457	8.32	17	6109	5650	inactive
Gmer (GDP-4-keto-6-deoxy-D-mannose 3,5-epimerase/4-reductase)	DRSC04376	15.2	17.4	5875	6303	inactive
Gmer (GDP-4-keto-6-deoxy-D-mannose 3,5-epimerase/4-reductase)	DRSC28925	15.3	5.74	5248	1447	inactive
MED19 (Mediator complex subunit 19)	DRSC10516	10.6	25.3	5616	5402	inactive
MED19 (Mediator complex subunit 19)	DRSC23458	1.58	9.74	6474	5914	inactive
GlyT (Glycine transporter)	DRSC04512	7.68	15.5	5913	5883	inactive
GlyT (Glycine transporter)	DRSC26130	8.63	3.4	5837	6095	inactive
CG31140	DRSC14603	1.9	1.89	6255	6525	inactive
CG31140	DRSC15904	2.93	8.27	5940	6592	inactive
HDAC11 (Histone deacetylase 11)	DRSC14280	10.6	3.25	5176	1046	inactive
HDAC11 (Histone deacetylase 11)	DRSC26842	2.95	2.51	6365	6138	inactive
scro (scarecrow)	DRSC17102		1.56	283	641	inactive
CG31445	DRSC14443	1.77	1.85	5999	6550	inactive
CG31445	DRSC28642	27.7	11.3	4222	1794	inactive
Cep89 (Centrosomal protein 89kDa)	DRSC07110	4.26	11	6858	6585	inactive
Cep89 (Centrosomal protein 89kDa)	DRSC29382		26.4	275	4998	inactive
l(2)k09913 (lethal (2) k09913)	DRSC04699	4.61	19.3	6839	5287	inactive
CG33476	DRSC22888	2.19	9.47	6067	5776	inactive
Cks30A (Cyclin-dependent kinase subunit 30A)	DRSC03292	15.3	7.79	6259	5870	inactive
CG32017	DRSC17183	1.85	0.53	6420	6408	inactive
CG7196 (retired record)	DRSC01000	6.76	9.25	6023	5654	inactive
CG7196 (retired record)	DRSC03023	4.48	5.85	6315	6631	inactive
Syx4 (Syntaxin 4)	DRSC18586		5.38	433	1486	inactive
Syx4 (Syntaxin 4)	DRSC27586	0.18	2.83	6661	6334	active
Ankrd49	DRSC01894	2.78	14.8	6445	6301	inactive
Ankrd49	DRSC29117	0.94	16.8	636	5759	inactive
Usf	DRSC18129	12.4	15.1	3516	6306	inactive
Usf	DRSC23749	0.88	0.8	6138	6153	inactive
CG14125	DRSC10129	3.84	4.65	5800	6388	inactive
l(3)73Ah + CG32163	DRSC21888	24.6	19.8	4187	2900	inactive
CG15431	DRSC00446	6.74	2.37	6678	6870	inactive
CG15431	DRSC29532	13.2	3.7	5218	784	inactive
Tl (Toll)	DRSC16885	1.65	6.95	6011	6729	inactive
CG11367	DRSC22434	1.66	0.88	6254	6397	inactive
CG8492	DRSC10984	4.75	1.89	6292	6130	inactive
CG8492	DRSC21804	3.59	14.8	557	6066	inactive
Ald2 (Aldolase 2)	DRSC15799	5.85	7.88	5449	3517	inactive
Ald2 (Aldolase 2)	DRSC25164	2.76	3.56	5983	5837	inactive
CG2841	DRSC18824	6.96	0.69	6713	6546	inactive
CG2841	DRSC22106	7.11	1.84	6710	6681	inactive
Loxl2 (Lysyl oxidase-like 2)	DRSC04469	7.41	20.4	6305	5688	inactive
